Compound potency records, mixed from different reports. Data source: NIAID ChemDB in PubChem.

Common to all: enzyme or target tests

Inhibition is in % at the dose shown (toxicity tests: loss of growth or viability).

compound | organism | strain or isolate | protein | method | endpoint | tested at | result
C[C@@H](Nc1nc2ccc(Cl)cc2c(=O)o1)c1ccccc1 | Human cytomegalovirus |  | Protease |  | inhibition | 10 µM | 43%
O=C(CCCCCl)Nc1nnc(NCc2ccc3c(c2)OCO3)s1 | Human cytomegalovirus |  | Polymerase |  | IC50 |  | <25 µM
COc1ccc2cc(O)c(C(=O)N[C@H](C)c3ccc([N+](=O)[O-])cc3)cc2c1 | Human cytomegalovirus |  | HCMV DNA polymerase |  | IC50 |  | >100 µM
Nc1nc2c(ncn2COC(CO)COP(=O)(O)OP(=O)(O)OP(=O)(O)O)c(=O)[nH]1 | Human herpesvirus 6 | Z29 (TYPE 6B) | DNA polymerase |  | IC50 |  | 5.56 µM
Cc1cccc2nc(N[C@H](C)C(=O)OC(C)(C)C)oc(=O)c12 | Human cytomegalovirus |  | Protease |  | IC50 |  | 1.8 µM
CC(=O)C(C(C)=O)C1=C(Cl)C(=O)c2ccccc2C1=O | Human cytomegalovirus |  | Protease | scintillation proximity | IC50 |  | 1.45 µM
COc1ccc(C2CC2(Nc2nc3ccc(CNC(=O)CN(C)C)c(C)c3c(=O)o2)C(=O)N2CCCC2)cc1 | Human cytomegalovirus |  | Protease |  | IC50 |  | 1.1 µM
Oc1ccccc1C=NCCN=Cc1ccccc1O | Human cytomegalovirus |  | Proteinase |  | IC50 |  | >372 µM
O=C(c1cc2ccccc2cc1O)N1CCN(Cc2ccccc2)CC1 | Human cytomegalovirus |  | HCMV DNA polymerase |  | IC50 |  | >100 µM
Cn1cc(C(=O)NCc2ccc(Cl)cc2)c(=O)c2cc(CN3CCOCC3)ccc21 | Human cytomegalovirus | AD169 | DNA polymerase | scintillation proximity / radiometric | IC50 |  | 0.7 µM
O=C(O)CP(=O)(O)O | Human herpesvirus 6 | TYPE 6 | DNA polymerase |  | IC50 |  | 2–5 µg/mL
O=C(/C=C/c1ccccc1)Nc1nnc(NCc2ccc(Cl)c(Cl)c2)s1 | Human cytomegalovirus |  | Polymerase |  | IC50 |  | >25 µM
COC(=O)[C@H](Cc1ccc(OC)cc1)Nc1nc2ccc(NC(=O)OC(C)(C)C)c(C)c2c(=O)o1 | Human cytomegalovirus |  | Protease |  | IC50 |  | 0.52 µM
O=C(NCc1ccc(Cl)cc1)c1c[nH]c2c(F)cccc2c1=O | Human cytomegalovirus |  | Herpesvirus DNA polymerase |  | Ki |  | 4 µM
O=C1C(OC2CCCCC2)=C(C2CCCCC2)C(=O)c2ccccc21 | Human cytomegalovirus |  | Protease | scintillation proximity | IC50 |  | 148 µM
O=C(NCc1ccccc1)c1cc2ccccc2cc1O | Human cytomegalovirus |  | HCMV DNA polymerase |  | IC50 |  | >100 µM
COC(=O)[C@H](C)Nc1nc2ccc(NC(=O)OC(C)(C)C)c(C)c2c(=O)o1 | Human cytomegalovirus |  | Protease |  | IC50 |  | 0.74 µM
O=C(NCCc1ccccc1)c1cc2ccccc2cc1O | Human cytomegalovirus |  | HCMV DNA polymerase |  | IC50 |  | >100 µM
O=C(Nc1nnc(NCc2ccc(F)cc2)s1)c1c(Cl)cccc1Cl | Human cytomegalovirus |  | Polymerase |  | IC50 |  | <25 µM
Nc1nc2c(ncn2CC[C@H](O)COP(=O)(O)OP(=O)(O)OP(=O)(O)O)c(=O)[nH]1 | Human cytomegalovirus | AD169 | DNA polymerase |  | Ki |  | 13.4 µM
O=C(NCc1cccc([N+](=O)[O-])c1)c1cc2ccccc2cc1O | Human cytomegalovirus |  | HCMV DNA polymerase |  | IC50 |  | >100 µM
CCC(=NCCN=C(CC)c1ccccc1O)c1ccccc1O | Human cytomegalovirus |  | Proteinase |  | IC50 |  | >308 µM
COc1cc(OC)cc(/C(N)=N\OC(=O)c2cccc3ccccc23)c1 | Human cytomegalovirus |  | Polymerase | scintillation proximity / radiometric | IC50 |  | 32.7 µM
Nc1nc2c(ncn2[C@H]2C[C@H](O)[C@@H](COP(=O)(O)OP(=O)(O)OP(=O)(O)O)O2)c(=O)[nH]1 | Human cytomegalovirus | AD169 | DNA polymerase |  | Ki |  | 0.22 µM
CCSCCNc1nnc(NC(=O)c2c(Cl)cccc2Cl)s1 | Human cytomegalovirus |  | Polymerase |  | IC50 |  | >25 µM
COC(=O)[C@H](Cc1cc(I)c(OC)c(I)c1)Nc1nc2ccc(NC(=O)OC(C)(C)C)c(C)c2c(=O)o1 | Human cytomegalovirus |  | Protease |  | IC50 |  | 0.25 µM
Cc1cccc(C(=O)O/N=C(\N)c2ccc(Cl)cc2Cl)c1 | Human cytomegalovirus |  | Polymerase | scintillation proximity / radiometric | IC50 |  | 16 µM
COc1ccc2cc(O)c(C(=O)NCc3ccc(Cl)cc3)cc2c1 | Human cytomegalovirus |  | HCMV DNA polymerase |  | IC50 |  | >100 µM
O=C(Nc1nnc(NCCSc2ccccc2)s1)c1ccc(Br)cc1 | Human cytomegalovirus |  | Polymerase |  | IC50 |  | <25 µM
O=C(NCc1ccc([N+](=O)[O-])cc1)c1cc2cc(Br)ccc2c(Br)c1O | Human cytomegalovirus |  | HCMV DNA polymerase |  | IC50 |  | 10.6 µM
Nc1nc2c(ncn2CC[C@@H](O)COP(=O)(O)OP(=O)(O)OP(=O)(O)O)c(=O)[nH]1 | Human cytomegalovirus | AD169 | DNA polymerase |  | Ki |  | 3.5 µM
Cc1ccccc1C(=O)O/N=C(\N)c1ccc(Cl)cc1Cl | Human cytomegalovirus |  | Polymerase | scintillation proximity / radiometric | IC50 |  | 6.1 µM
O=C(Nc1nnc(NCCCn2ccnc2)s1)c1ccc(I)cc1 | Human cytomegalovirus |  | Polymerase |  | IC50 |  | >25 µM
Cc1cccc2nc(NC3(C(=O)OC(C)(C)C)CC3)oc(=O)c12 | Human cytomegalovirus |  | Protease |  | IC50 |  | 2.9 µM
N/C(=N\OC(=O)c1cc(Cl)cc(Cl)c1)c1ccc(Cl)cc1Cl | Human cytomegalovirus |  | Polymerase | scintillation proximity / radiometric | IC50 |  | 25 µM
O=C(NCc1ccc(Cl)cc1)c1cn2c3c(cc(CN4CCOCC4)cc3c1=O)OC(c1ccccn1)C2 | Human cytomegalovirus |  | HCMV polymerase | scintillation proximity / radiometric | IC50 |  | 0.27 µM

The last 5 rows once more:

compound | organism | strain or isolate | protein | method | endpoint | tested at | result
Cc1ccccc1C(=O)O/N=C(\N)c1ccc(Cl)cc1Cl | Human cytomegalovirus |  | Polymerase | scintillation proximity / radiometric | IC50 |  | 6.1 µM
O=C(Nc1nnc(NCCCn2ccnc2)s1)c1ccc(I)cc1 | Human cytomegalovirus |  | Polymerase |  | IC50 |  | >25 µM
Cc1cccc2nc(NC3(C(=O)OC(C)(C)C)CC3)oc(=O)c12 | Human cytomegalovirus |  | Protease |  | IC50 |  | 2.9 µM
N/C(=N\OC(=O)c1cc(Cl)cc(Cl)c1)c1ccc(Cl)cc1Cl | Human cytomegalovirus |  | Polymerase | scintillation proximity / radiometric | IC50 |  | 25 µM
O=C(NCc1ccc(Cl)cc1)c1cn2c3c(cc(CN4CCOCC4)cc3c1=O)OC(c1ccccn1)C2 | Human cytomegalovirus |  | HCMV polymerase | scintillation proximity / radiometric | IC50 |  | 0.27 µM

ICn is the concentration giving n% inhibition. Rows are shuffled and stem from different studies. a–b is a range or a potency band. An empty or dashed field is not shown.